Test results published in article PMC10492818.
Protein sequences can lack the tags named with them.

Target: T1, 6XHis-CsgD STm (Salmonella enterica serovar Typhimurium SL1344) (UniProt O54294)
T1 sequence (looked up): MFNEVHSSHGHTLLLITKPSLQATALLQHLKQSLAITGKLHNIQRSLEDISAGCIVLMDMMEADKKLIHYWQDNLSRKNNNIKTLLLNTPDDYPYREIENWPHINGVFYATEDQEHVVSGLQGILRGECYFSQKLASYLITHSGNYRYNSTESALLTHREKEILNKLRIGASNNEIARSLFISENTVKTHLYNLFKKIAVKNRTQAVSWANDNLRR
Assay: EMSA
Settings: shift begins at 0.5 ug, complete at 1 ug protein in 20 uL, EMSA: 50 mM NaCl, 20 mM Tris pH 7.4, 0.02% sodium azide, 40 min at 30 C, 5% native PAGE in 0.5x TAE with 2% glycerol, 0.1-8 ug protein, recombinant protein, residues 1-216, protein details: N-terminal 6xHis (pET14b), label: 5'-FAM on the curli-inter-F strand, probe letters rebuilt from the primers and the genome

“CCCATGGGAAGCATAAGAACATCCCCATGGCGGCATAACACACACCAACACTTCATTTTTTAGGTGCGCGATACACTATCTTCTGTGGCCAAAAATCAATTATAAAAAATCACATGGCTATCGTTTTATTAGCACTTTGGTATGAGCTTAAATAACAAAATACCACGCGTGGGTGAGTTATTAAAAATGTTTCCACGGACATACTCTTCATCGTAACGACGCGTTAACAAAAAACGCATGTCGCTAACAAGGTAATAGATAATTTTCGCTATGTACGACCAGGTCCAGGGTGACAGCATGAAAAACAAATTGTTATTTATGATGTTGACAATACTGGGTGCG (double strand) [PcsgB]”: binds.
